Measured values from several laboratories, pooled; numbers as filed in NIAID ChemDB.

All rows: toxicity to cultured cells; cells: MT-4; measure: CC50

CCn is the concentration with n% toxicity to the cells. An empty or dashed field is not shown. Rows are shuffled and stem from different studies. a–b is a range or a potency band.

smiles | method | value
S=c1[nH]nc(Cc2ccccn2)n1-c1ccc(Cl)c(Cl)c1 | MTT | >100 µM
CN1CC(=O)C(=O)C=C1Cn1cnc([N+](=O)[O-])c1Nc1cc(Cl)cc(Cl)c1 | MTT | 7.3 µM
Nc1nc(N)c2ncn(C[C@@H](CF)OCP(=O)(O)O)c2n1 | - | >300 µM
Cc1cn([C@H]2C[C@H](N=[N+]=[N-])[C@@H](COP(=O)(O)C(N)=O)O2)c(=O)[nH]c1=O | MTT | 2700 µM
CCOCn1c(Cc2ccccc2)c(C(C)C)c(=O)[nH]c1=O | MTT | >100 µM
O=c1ccn([C@@H]2O[C@H](CO)[C@@H](O)[C@H]2O)c2ccc(F)cc12 | MTT | 31–125 µg/mL
CCOC(=O)c1[nH]c2ccccc2c1S(=O)(=O)c1ccccc1N | - | >200 µM
CC(C)=CCN1C(C)C(=O)Nc2ccc(Cl)cc2S1(=O)=O | MTT | >200 µM
CC(=O)/C=C(/C)OCCCn1c(=O)c(C)cn([C@@H]2O[C@H](CO[Si](C)(C)C(C)(C)C)C3(OS(=O)(=O)C=C3N)[C@H]2O[Si](C)(C)C(C)(C)C)c1=O | - | ≥130 µM
CC1(C)NC(=O)n2c1nc(C(=O)NCc1ccc(F)cc1)c(O)c2=O | microscopy | >1 µM
CCN1C(C)Cn2c(=O)[nH]c3cc(Cl)cc(c32)S1(=O)=O | MTT | 130 µM
CSc1nc(N)c(C)c(C(=O)c2ccc(F)cc2)n1 | MTT | >90.2 µM
CCNC(=O)OCCOCn1c(Sc2cccc(C)c2)c(C)c(=O)[nH]c1=O | - | 171 µM
CCn1cc(C(=O)O)c(=O)c2cc(F)c(N3CCN(CN4C(=O)C(=Nc5ccc(S(=O)(=O)Nc6nc(C)cc(C)n6)cc5)c5cc(F)ccc54)C(C)C3)c(F)c21 | MTT | 126 µM
C[C@H](Cn1cnc2c(=O)[nH]c(N)nc21)OCP(=O)(O)O | - | >300 µM
CCCCCCCCCCCC(=O)OCOc1c2n(cc(C(=O)NCc3ccc(F)cc3F)c1=O)[C@@H]1CN(C2=O)[C@@H](C)CC[C@]12CC(C)=NO2 | luminescence | 50 µM
O=C1Nc2ccccc2Sc2c1[nH]c1ccccc21 | - | 96 µM
CCCCCCCCCCCCCCCC(=O)Oc1c2n(cc(C(=O)NCc3ccc(F)cc3F)c1=O)[C@@H]1CN(C2=O)[C@@H](C)CC[C@]12CC(C)=NO2 | luminescence | 50 µM
CCCCCCCCCC(=O)O[C@@]12[C@H](OCOCc3ccccc3)[C@@H](C)[C@@]3(O)[C@@H](C=C(CO)C[C@]4(O)C(=O)C(C)=C[C@@H]34)[C@@H]1C2(C)C | MTT | 4.39 µg/mL
Cc1c(C(C)c2c(F)cccc2F)nc(SC/C=C/c2ccc(C#N)cc2)[nH]c1=O | MTT | >59.1 µM
Cc1cn([C@H]2C[C@H](N=[N+]=[N-])[C@@H](COP(=O)(O)CI)O2)c(=O)[nH]c1=O | MTT | >500 µM
CC(=O)/C=C(\C)OCCCCCCn1c(=O)c(C)cn([C@@H]2O[C@H](CO[Si](C)(C)C(C)(C)C)C3(OS(=O)(=O)C=C3N)[C@H]2O[Si](C)(C)C(C)(C)C)c1=O | - | 8.8 µM
CC(=O)NC1C(O)OC(CO)C(O)C1OC1OC(C(=O)[O-])C(OC2OC(CO)C(O)C(OC3OC(C(=O)[O-])C(O)C(O)C3O)C2NC(C)=O)C(O)C1O.[Na+].[Na+] | - | >125 µg/mL
CCOCn1c(Cc2cccc(OCC=O)c2)c(CC)c(=O)[nH]c1=O | MTT | 45 µM
CCOCn1c(Sc2ccccc2)c(C)c(=O)[nH]c1=O | - | 215 µM
Nc1cc2c(=O)c(C(=O)O)cn(C3CC3)c2cc1N1CCN(c2ccccn2)CC1 | MTT | 4.19 µM
CC(=O)/C=C(\C)OCCCCCCCCn1c(=O)c(C)cn([C@@H]2O[C@H](CO[Si](C)(C)C(C)(C)C)C3(OS(=O)(=O)C=C3N)[C@H]2O[Si](C)(C)C(C)(C)C)c1=O | - | 67 µM
C=CCOc1cccc(Cc2[nH]c(=O)[nH]c(=O)c2CC)c1 | MTT | 74 µM
Cc1cc(C)nc(NS(=O)(=O)c2ccc(N=C3C(=O)N(CN4CCN(c5ccc([N+](=O)[O-])cc5)CC4)c4ccc(F)cc43)cc2)n1 | MTT | 44.12 µM
CC(=O)C(CCCCCCn1c(=O)c(C)cn([C@@H]2O[C@H](CO[Si](C)(C)C(C)(C)C)C3(OS(=O)(=O)C=C3N)[C@H]2O[Si](C)(C)C(C)(C)C)c1=O)C(C)=O | - | >250 µM
O=C(Cc1ccccn1)NNC(=S)Nc1cccc(C(F)(F)F)c1 | MTT | >100 µM
Nc1cc2c(=O)c(C(=O)O)cn(C3CC3)c2cc1N1CCN(c2cnccn2)CC1 | MTT | 49.2 µM
C=C(c1cc(C)cc(C)c1)c1c(CC)c(=O)[nH]c(=O)n1COCC | MTT | >100 µM
Cc1c(Cc2c(Cl)cccc2Cl)nc(SC/C=C/c2ccc([N+](=O)[O-])cc2)[nH]c1=O | MTT | >10.82 µM
CN(C)n1cc(C(=O)O)c(=O)c2cc(N)c(N3CCN(c4ccccn4)CC3)cc21 | MTT | 1.15 µM
Cc1cc(C)c(-c2c3nc(c(-c4c(C)cc(C)cc4C)c4ccc([nH]4)c(-c4c(C)cc(C)cc4C)c4nc(c(-c5c(C)cc(C)cc5C)c5ccc2[nH]5)C=C4)C=C3)c(C)c1 | - | 4 µg/mL
[N-]=[N+]=N[C@@H]1C[C@@H](CO)O[C@H]1n1cnc2c(N)ncnc21 | - | 625 µM
Nc1nc2c(ncn2[C@H]2C[C@@H](F)[C@@H](CO)O2)c(=O)[nH]1 | - | >500 µM
Cc1c(Sc2ccccc2)n(COCCOC(=O)c2ccccc2)c(=O)[nH]c1=O | - | 53 µM
CCCCCCNC(=O)P(=O)(O)OC[C@H]1O[C@@H](n2cc(C)c(=O)[nH]c2=O)C[C@@H]1N=[N+]=[N-] | MTT | 1500 µM
Cc1c(Sc2cc(Cl)cc(Cl)c2)n(COCCO)c(=O)[nH]c1=O | - | 218 µM
C=CCOc1cccc(Cc2c(CC)c(=O)[nH]c(=O)n2COCC)c1 | MTT | 65 µM
Cc1ccc(Cl)c(Nc2nnc(Cc3ccccn3)s2)c1 | MTT | >100 µM
C#CCOCn1c(C(=C)c2ccccc2)c(CC)c(=O)[nH]c1=O | MTT | >100 µM
Fc1cccc(F)c1Cn1c(=S)[nH]c2cccnc21 | - | >125 µg/mL
Cc1ccc(Sc2c([N+](=O)[O-])ncn2CC2=CC(=O)C(=O)CN2C)cc1 | MTT | 29.8 µM
Nc1nc2c(ncn2C[C@@H](CF)OCP(=O)(O)O)c(=O)[nH]1 | - | 103 µM
COc1ccc(Nc2c([N+](=O)[O-])ncn2CC2=CC(=O)C(=O)CN2C)cc1 | MTT | >250 µM
Nc1ccn([C@H]2CC[C@@H](CO)O2)c(=O)n1 | - | 80 µM
C=C(c1ccccc1)c1c(CC)c(=O)[nH]c(=O)n1COC/C=C/c1ccccc1 | MTT | 29 µM
Fc1cccc(F)c1Cn1c(=S)[nH]c2ccccc21 | - | >25 µg/mL
O=C(O)c1cn(C2CC2)c2nc(N3CCN(c4ccccn4)CC3)ccc2c1=O | MTT | >8.32 µM
COC(=O)c1cn([C@@H]2O[C@H](CO)[C@@H](O)[C@H]2O)c2ccc(F)cc2c1=O | MTT | 31–125 µg/mL
CC1(C)Cc2c(Br)c(Br)c(Br)c(OCCCN3CCCCC3)c2O1 | MTT | 6 µM
O=C1Nc2ccccc2S(=O)(=O)c2c1[nH]c1ccccc21 | - | >200 µM
CCOCn1c(Cc2cccc(OCC3CO3)c2)c(CC)c(=O)[nH]c1=O | MTT | 80 µM
CN1CCn2c(nc(C(=O)NCc3ccc(F)cc3)c(O)c2=O)C(N(C)C(=O)C(=O)N(C)C)C1 | microscopy | >1 µM
CNc1cc2c(=O)c(C(=O)O)cn(N(C)C)c2cc1N1CCN(c2ccccn2)CC1 | MTT | 178 µM
CCOCn1c(Cc2cc(C)cc(C)c2)c(CC)c(=O)[nH]c1=O | - | >500 µM
CCC(CO)n1cc(C(=O)O)c(=O)c2cc(N)c(N3CCN(c4ccccn4)CC3)cc21 | MTT | 25.25 µM
CN1CC(=O)C(=O)C=C1Cn1cnc([N+](=O)[O-])c1Nc1ccc(Br)cc1 | MTT | 6.8 µM
C=CCOc1cccc(Cc2nc(N(C)C)[nH]c(=O)c2CC)c1 | MTT | >100 µM
O=C(O)c1cn(C2CC2)c2nc(N3CCN(c4nc5ccccc5s4)CC3)ccc2c1=O | MTT | 1.2 µM
Fc1cccc(F)c1Cn1c(=S)[nH]c2ccc(Cl)nc21 | - | >125 µg/mL
O=c1ccn([C@@H]2O[C@H](CO)[C@@H](O)[C@H]2O)c2c(F)cccc12 | MTT | 31–125 µg/mL
COc1ccc(N2CCN(CN3C(=O)C(=Nc4ccc(S(=O)(=O)Nc5nc(C)cc(C)n5)cc4)c4ccccc43)CC2)cc1 | MTT | 44.4 µM
Cc1cn([C@H]2C[C@H](N=[N+]=[N-])[C@@H](COP(=O)(O)CCl)O2)c(=O)[nH]c1=O | MTT | >2600 µM
FC(F)(F)c1cccc(Nc2nnc(Cc3ccccn3)s2)c1 | MTT | 70.6 µM
CCCCCCCCCCCCCCCCCCOC(=O)OCOc1c2n(cc(C(=O)NCc3ccc(F)cc3F)c1=O)[C@@H]1CN(C2=O)[C@@H](C)CC[C@]12CC(OC)=NO2 | luminescence | 50 µM
CN1C(=O)CN2CCn3c(nc(C(=O)NCc4ccc(F)cc4)c(O)c3=O)C1C2 | microscopy | >1 µM
CC=CCN1C(C)C(=S)Nc2ccc(Cl)cc2S1(=O)=O | MTT | 57 µM
Cc1cc(C)cc(Sc2c(C)c(=O)[nH]c(=S)n2COCCO)c1 | - | 240 µM
CCCCCCCCCCCCCCCC(=O)OCOc1c2n(cc(C(=O)NCc3ccc(F)cc3F)c1=O)[C@@H]1CN(C2=O)[C@@H](C)CC[C@]12CC(C)=NO2 | luminescence | 50 µM
C=C(c1cc(C)cc(C)c1)c1c(CC)c(=O)[nH]c(=O)n1COCC#Cc1ccccc1 | MTT | 31 µM
C=CCCc1cccc(Cc2c(CC)c(=O)[nH]c(=O)n2COCC)c1 | MTT | 55 µM
Cc1c(Sc2ccccc2)n(COCc2ccccc2)c(=O)[nH]c1=O | - | 123 µM
CC1(C)c2nc(C(=O)NCc3ccc(F)cc3)c(O)c(=O)n2CCN1Cc1ncco1 | microscopy | >1 µM
C=C(c1ccccc1)c1c(CC)c(=O)[nH]c(=O)n1COCC#Cc1ccccc1 | MTT | 28 µM
CCN1CCn2c(=S)[nH]c3cc(Cl)cc(c32)S1(=O)=O | MTT | >200 µM
Cc1ccc(Nc2nnc(Cc3ccccn3)s2)cc1Cl | MTT | 47 µM
CN1CCn2c(nc(C(=O)NCc3ccc(F)cc3)c(O)c2=O)C(N(C)C(=O)C(=O)N2CCOCC2)C1 | microscopy | >1 µM
Cc1cc(C)c(S(N)(=O)=O)c(C)c1-c1c2nc(c(-c3c(C)cc(C)c(S(N)(=O)=O)c3C)c3ccc([nH]3)c(-c3c(C)cc(C)c(S(N)(=O)=O)c3C)c3nc(c(-c4c(C)cc(C)c(S(N)(=O)=O)c4C)c4ccc1[nH]4)C=C3)C=C2 | - | 80 µg/mL
C=C(C)COCn1c(C(=C)c2cc(C)cc(C)c2)c(CC)c(=O)[nH]c1=O | MTT | 34 µM
Cc1ccc(-n2c(Cc3ccccn3)n[nH]c2=S)cc1Cl | MTT | >100 µM
CCn1cc(C(=O)O)c(=O)c2cc(F)c(N3CCN(CN4C(=O)C(=Nc5ccc(S(=O)(=O)Nc6nc(C)cc(C)n6)cc5)c5ccccc54)C(C)C3)c(F)c21 | MTT | 122 µM
Clc1ccc(Nc2nnc(Cc3ccccn3)s2)cc1Cl | MTT | >100 µM
CC1(C)Cc2c(Br)c(Br)c(Br)c(OCCCN3CCN(c4ccccn4)CC3)c2O1 | MTT | 47 µM
COc1ccccc1N1CCN(c2cc3c(cc2N)c(=O)c(C(=O)O)cn3C2CC2)CC1 | MTT | 23.77 µM
CCCCCCCCCC(=O)OCOc1c2n(cc(C(=O)NCc3ccc(F)cc3F)c1=O)[C@@H]1CN(C2=O)[C@@H](C)CC[C@]12CC(C)=NO2 | luminescence | 50 µM

9 of the rows above, restated:

smiles,method,value
C=C(c1cc(C)cc(C)c1)c1c(CC)c(=O)[nH]c(=O)n1COCC#Cc1ccccc1,MTT,31 µM
CCCCCCNC(=O)P(=O)(O)OC[C@H]1O[C@@H](n2cc(C)c(=O)[nH]c2=O)C[C@@H]1N=[N+]=[N-],MTT,1500 µM
CN(C)n1cc(C(=O)O)c(=O)c2cc(N)c(N3CCN(c4ccccn4)CC3)cc21,MTT,1.15 µM
CC1(C)c2nc(C(=O)NCc3ccc(F)cc3)c(O)c(=O)n2CCN1Cc1ncco1,microscopy,>1 µM
CC1(C)Cc2c(Br)c(Br)c(Br)c(OCCCN3CCCCC3)c2O1,MTT,6 µM
CCn1cc(C(=O)O)c(=O)c2cc(F)c(N3CCN(CN4C(=O)C(=Nc5ccc(S(=O)(=O)Nc6nc(C)cc(C)n6)cc5)c5ccccc54)C(C)C3)c(F)c21,MTT,122 µM
CCOCn1c(Sc2ccccc2)c(C)c(=O)[nH]c1=O,-,215 µM
Cc1cc(C)nc(NS(=O)(=O)c2ccc(N=C3C(=O)N(CN4CCN(c5ccc([N+](=O)[O-])cc5)CC4)c4ccc(F)cc43)cc2)n1,MTT,44.12 µM
Cc1ccc(Sc2c([N+](=O)[O-])ncn2CC2=CC(=O)C(=O)CN2C)cc1,MTT,29.8 µM